Pooled drug test results. Numbers come from NIAID ChemDB, via PubChem.

Shared fields: growth or infection tests; species: HIV-1; cells: MT-4; read-out: EC50

Blank or dashed fields: not listed here.

compound,strain,mutations,method,result
COC(=O)c1ccc(CSc2nc(Cc3c(F)cccc3F)c(C)c(=O)[nH]2)cc1,NL4-3,-,MTT,0.142 µM
Nc1nc(=O)n([C@@H]2CO[C@H](CO)S2)cc1F,HXB2D (RT-M184V),RT-M184V,RT activity,>100 µM
Cc1nc2ccccc2c(-c2ccc3c4c(ccnc24)[C@H]2C[C@@H]32)c1[C@H](OC(C)(C)C)C(=O)O,IIIB,-,ATP,0.037 µM
Cc1ccnc2c1NC(=O)c1cccnc1N2C1CC1,-,RT-L74V Y181C,-,<3 µM
c1ccc2c(c1)-n1cnnc1Cc1nncn1-2,IIIB,-,cytopathic effect / MTT,>200 µM
CC(C)[C@H](NC(=O)NCc1ccccn1)C(=O)N[C@@H](Cc1ccccc1)C(=O)C(F)(F)CCc1ccccc1,IIIB,-,-,7.6 µM
COC(=O)[C@H](CO)NC(=O)[C@H](CCSC)NC(=O)COc1ccc2ccccc2c1,IIIB,-,cytopathic effect / MTT,>100 µg/mL
O=c1[nH]cnc2c1ncn2[C@H]1CC[C@@H](CO)O1,IIIB,-,cytopathic effect / trypan blue,10 µM
CC(=O)O[C@@H]1[C@@H](C)[C@@]2(O)[C@@H](C=C(O)C[C@]3(O)C(=O)C(C)=C[C@@H]23)[C@@H]2C(C)(C)[C@]12O,IIIB,-,MTT,>307 µM
COC(=O)CNC(=O)CNC(=O)COc1ccc2ccccc2c1,IIIB,-,cytopathic effect / MTT,>100 µg/mL
CC[C@H](C)[C@H](NC(=O)[C@H](OCc1ccccc1)[C@H](O)[C@@H](O)[C@@H](OCc1ccccc1)C(=O)N[C@H](C(=O)NC)[C@@H](C)CC)C(=O)NC,-,-,cytopathic effect / XTT,0.06 µg/mL
Nc1ccn([C@H]2CC[C@@H](CO)O2)c(=O)n1,IIIB BCH-189-resistant (RT M184V),RT-M184V,p24,2.6 µM
Cc1nnc2n1-c1ccccc1-n1c(C)nnc1C2C,IIIB,-,cytopathic effect / MTT,>200 µM
CCc1c(Cc2c(F)cccc2F)nc(SCc2ccc(C#N)cc2)[nH]c1=O,NL4-3,-,MTT,0.075 µM
CC(=O)O[C@@]12C[C@@H](C)[C@@]3(O)[C@@H](C=C(CO)C[C@]4(O)C(=O)C(C)=C[C@@H]34)[C@@H]1C2(C)C,IIIB,-,MTT,0.0009 µM
Cc1ccnc2c1NC(=O)c1cccnc1N2C1CC1,NL4-3,-,MTT,0.052 µM
C=C(C)[C@@H]1CC[C@]2(C(=O)NCCCCCCCC(=O)N[C@@H](CC(C)C)[C@H](O)CC(=O)O)CC[C@]3(C)[C@H](CC[C@@H]4[C@@]5(C)CC[C@H](O)C(C)(C)[C@@H]5CC[C@]43C)[C@@H]12,DH012,-,RT activity,<53 µM
C[C@H](Cn1cnc2c(N)ncnc21)OCP(=O)(O)O,-,-,cytopathic effect / MTT,2.2 µM
CC(C)(C)OC(=O)N[C@@H](Cc1ccccc1)[C@@H](O)C[C@@H](Cc1ccc(OCCN2CCOCC2)cc1)C(=O)N[C@H]1c2ccccc2C[C@H]1O,RF,-,antigen,<0.025 µM
C[C@H](Cn1cnc2c(=O)[nH]c(N)nc21)OCP(=O)(O)O,-,-,cytopathic effect / MTT,3 µM
COC(=O)CNC(=O)[C@H](CCSC)NC(=O)COc1ccc2ccccc2c1,IIIB,-,cytopathic effect / MTT,>100 µg/mL
CC1=C[C@H]2[C@@]3(O)[C@H](C)[C@@H](O)[C@]4(O)[C@H]([C@@H]3C=C(O)C[C@]2(O)C1=O)C4(C)C,IIIB,-,MTT,>343 µM
CC1c2n[nH]c(=O)n2-c2ccccc2-n2c1n[nH]c2=O,IIIB,-,cytopathic effect / MTT,>200 µM
CC(=O)SCCOP(=O)(OCCSC(C)=O)OC[C@@H]1CC[C@H](n2cnc3c(=O)[nH]cnc32)O1,IIIB,-,cytopathic effect,3.4 µM
Nc1ccn([C@H]2CC[C@@H](CO)O2)c(=O)n1,IIIB,-,cytopathic effect / MTT,0.09 µg/mL
Nc1nc2c(ncn2C/C=N/OCP(=O)(O)O)c(=O)[nH]1,899A,-,absorbance,85 µM
Nc1nc(N)c2ncn([C@H]3C=C[C@@H](OCP(=O)(O)O)O3)c2n1,-,-,-,82.5 µM
Cc1cc(/C=C/C#N)cc(C)c1Oc1nc(Nc2ccc(CN3CCN(S(N)(=O)=O)CC3)cc2)nc2ccsc12,IIIB,K103N,MTT,0.007 µM
O=c1ccn([C@H]2CC[C@H](CO)[Se]2)c(=O)[nH]1,IIIB,-,MTT,>100 µM
O=C(NCc1c(F)cc(F)cc1F)c1cn2c(c(O)c1=O)C(=O)N1C3CCC(CC3)O[C@@H]1C2,IIIB,-,ATP,0.0025 µM
C[C@H](CC[C@H](O)C(C)(O)CO)[C@H]1CC[C@@]2(C)C3=CC[C@H]4C(C)(C)C(=O)CC[C@]4(C)C3=CC[C@]12C,-,-,cytopathic effect / microscopy,<7.8 µM
Nc1nc2c(ncn2CCOCP(=O)(O)O)c(=O)[nH]1,-,-,cytopathic effect / MTT,0.14 µM
CC(C)C(C)/C=C/[C@@H](C)[C@H]1CCC2C3=C[C@@H](O)[C@@]4(O)C[C@@H](O)CC[C@]4(C)C3CC[C@@]21C,-,-,cytopathic effect / microscopy,>15.6 µM
CCc1nnc2n1-c1ccccc1-n1c(CC)nnc1C2,IIIB,-,cytopathic effect / MTT,>200 µM
C/C(Cn1cnc2c(N)ncnc21)=N\OCP(=O)(O)O,899A,-,absorbance,100 µM
CC1c2nnc(-c3ccccc3)n2-c2ccccc2-n2c(-c3ccccc3)nnc21,IIIB,-,cytopathic effect / MTT,>4 µM
Cc1ccccc1C(=O)c1cc(Cl)ccc1Oc1nc(Nc2ccc(C#N)cc2)ncc1C,IIIB,-,MTT / absorbance,>1.09 µM
CC(C)[C@@H](C)/C=C/[C@@H](C)[C@H]1CC[C@H]2C3=CC=C4C[C@@H](O)CC[C@]4(C)[C@H]3CC[C@]12C,-,-,cytopathic effect / microscopy,>1000 µM
Nc1ccn([C@H]2CC[C@H](CO)[Se]2)c(=O)n1,IIIB,-,MTT,>100 µM
NC(N)=NCCC[C@H]1/C=C/[C@@H](Cc2ccc3ccccc3c2)C(=O)NCC(=O)N[C@H](Cc2ccc(O)cc2)C(=O)N[C@@H](CCCN=C(N)N)C(=O)N1,IIIB,-,cytopathic effect / MTT,2.4 µM
CCc1nnc2n1-c1ccccc1-n1c(CC)nnc1C2C,IIIB,-,cytopathic effect / MTT,>200 µM
COC(=O)[C@H](CCSC)NC(=O)COc1ccc2ccc(O[C@H]3O[C@H](C4COC(C)(C)O4)[C@@H]4OC(C)(C)O[C@H]34)cc2c1,IIIB,-,cytopathic effect / MTT,>32 µg/mL
Nc1ccn([C@H]2CO[C@@H](CO)S2)c(=O)n1,HxB2D(RT-D67G),RT-D67G,RT activity,7.5 µM
Cc1c(Cc2c(Cl)cccc2Cl)nc(SCC(=O)c2ccc(C#N)cc2)[nH]c1=O,NL4-3,-,MTT,1.08 µM
CC(C)(C)NC(=O)[C@@H]1C[C@@H]2CCCC[C@@H]2CN1C[C@@H](O)[C@H](Cc1ccccc1)NC(=O)[C@H](CC(N)=O)NC(=O)c1ccc2ccccc2n1,PR-WT,-,p24,<0.025 µM
Nc1nc2c(ncn2CCOCP(=O)(O)OP(=O)(O)OP(=O)(O)O)c(=O)[nH]1,-,-,cytopathic effect / MTT,>200 µM
COC(=O)CNC(=O)[C@H](C)NC(=O)COc1ccc2ccccc2c1,IIIB,-,cytopathic effect / MTT,>79 µg/mL
Nc1ccn([C@@H]2CO[C@H](CO)S2)c(=O)n1,HxB2D(RT-D67G),RT-D67G,RT activity,8.8 µM
O=C1O[C@H]2[C@@H]3OC(=O)c4cc(O)c(O)c(O)c4-c4c(cc(O)c(O)c4O)C(=O)OC[C@H]2O[C@@H](OC(=O)c2cc(O)c(O)c(O)c2)[C@@H]3OC(=O)c2cc(O)c(O)c3c2[C@@H]2C1=CC(=O)[C@](O)(O3)C2(O)O,HX10,-,p24,0.48 µM
O=c1ccn([C@@H]2CC[C@H](CO)[Se]2)c(=O)[nH]1,IIIB,-,MTT,>100 µM
Cc1cc(SC2=C(O)C[C@](CCc3ccc(N)cc3)(C(C)C)OC2=O)c(C(C)(C)C)cc1CO,IIIB,-,cytopathic effect / MTT,>250 µg/mL
CO[C@@H]1C=C2C3CC[C@H]([C@H](C)/C=C/C(C)C(C)C)[C@@]3(C)CCC2[C@@]2(C)CC[C@H](O)C[C@]12O,-,-,cytopathic effect / microscopy,>31.3 µM
Nc1ncnc2c1ncn2CCOCP(=O)(O)OP(=O)(O)OP(=O)(O)O,-,-,cytopathic effect / MTT,>200 µM
CC1c2nnc(-c3ccncc3)n2-c2ccccc2-n2c(-c3ccncc3)nnc21,IIIB,-,cytopathic effect / MTT,>200 µM

Again, the opening 6 rows:

compound | strain | mutations | method | result
COC(=O)c1ccc(CSc2nc(Cc3c(F)cccc3F)c(C)c(=O)[nH]2)cc1 | NL4-3 | - | MTT | 0.142 µM
Nc1nc(=O)n([C@@H]2CO[C@H](CO)S2)cc1F | HXB2D (RT-M184V) | RT-M184V | RT activity | >100 µM
Cc1nc2ccccc2c(-c2ccc3c4c(ccnc24)[C@H]2C[C@@H]32)c1[C@H](OC(C)(C)C)C(=O)O | IIIB | - | ATP | 0.037 µM
Cc1ccnc2c1NC(=O)c1cccnc1N2C1CC1 | - | RT-L74V Y181C | - | <3 µM
c1ccc2c(c1)-n1cnnc1Cc1nncn1-2 | IIIB | - | cytopathic effect / MTT | >200 µM
CC(C)[C@H](NC(=O)NCc1ccccn1)C(=O)N[C@@H](Cc1ccccc1)C(=O)C(F)(F)CCc1ccccc1 | IIIB | - | - | 7.6 µM

Rows are shuffled and stem from different studies. ECn: concentration that inhibits the pathogen or its effect by n%.